## Positions that govern dimerization of the HIV-1 5' RNA

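Randomly mutated transcripts starting with one, two or three G (1G, 2G, 3G), capped or uncapped, were folded for 30 min at 37 °C. Monomer and dimer bands were cut from native gels after folding in high salt (300 mM KCl, 5 mM MgCl2) or low salt (40 mM KCl, 0.1 mM MgCl2). Kdimer compares mutation frequencies in monomer and dimer, corrected for sequencing errors.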

The 5' region of HIV-1 NL4-3 RNA (positions 1-437):
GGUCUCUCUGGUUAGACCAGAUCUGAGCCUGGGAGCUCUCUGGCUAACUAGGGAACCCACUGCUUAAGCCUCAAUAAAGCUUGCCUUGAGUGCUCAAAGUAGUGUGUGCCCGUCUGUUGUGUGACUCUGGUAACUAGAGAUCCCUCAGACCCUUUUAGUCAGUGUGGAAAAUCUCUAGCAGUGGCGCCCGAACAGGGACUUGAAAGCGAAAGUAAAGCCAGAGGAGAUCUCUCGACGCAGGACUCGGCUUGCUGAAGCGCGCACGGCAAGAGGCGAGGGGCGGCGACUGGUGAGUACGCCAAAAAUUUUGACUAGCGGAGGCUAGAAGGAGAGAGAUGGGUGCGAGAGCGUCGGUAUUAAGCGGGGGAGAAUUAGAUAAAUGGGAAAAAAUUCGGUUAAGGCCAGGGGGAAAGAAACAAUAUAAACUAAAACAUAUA

Scale: median log2 Kdimer over the changes at a position; positive = changes inhibit dimerization, negative = changes enhance it.
Sample: 1G capped high-salt.
One numbering serves 1G, 2G and 3G.
A position is written with its base where known.
Bases beyond 437 are not listed in the source.

| position | domain | 1G capped high-salt |
|---|---|---|
| C28 | TAR | -0.06 |
| C29 | TAR | -0.04 |
| A47 | TAR | -0.05 |
| A66 | PolyA | -0.26 |
| G99 | PolyA | 0.18 |
| U113 | none | -0.20 |
| C114 | none | 0.22 |
| U115 | none | 0.02 |
| U131 | PAS | 0.13 |
| A132 | PBS | 0.01 |
| A147 | PBS | -0.06 |
| C152 | PBS | -0.05 |
| G164 | PBS | -0.16 |
| C173 | PBS | -0.48 |
| G181 | PBS | -0.29 |
| G183 | PBS | -0.23 |
| G186 | PBS | -0.35 |
| C187 | PBS | 0.10 |
| C193 | PBS | 0.08 |
| G195 | PBS | 0.31 |
| G208 | PBS | -0.09 |
| C218 | antiPAS | -0.66 |
| G223 | antiPAS | 0.02 |
| G224 | none | 0.14 |
| A225 | none | -0.16 |
| A227 | CU | 1.14 |
| A235 | none | -1.02 |
| G240 | none | -0.36 |
| G241 | none | -0.21 |
| G246 | SL1 | 1.16 |
| A256 | SL1 | 0.87 |
| G257 | SL1 | 3.37 |
| C260 | SL1 | 3.91 |
| C264 | SL1 | 1.77 |
| G265 | SL1 | 2.64 |
| G270 | SL1 | 1.47 |
| C299 | SL2 | -0.38 |
| U306 | none | 0.02 |
| U308 | none | 0.14 |
| U309 | none | 0.13 |
| A311 | none | 0.36 |
| A314 | SL3 | 0.21 |
| A332 | none | -0.01 |
| G339 | AUG | 0.19 |
| C349 | none | -0.21 |
| C352 | none | 0.02 |
| C362 | none | 0.24 |
| G363 | none | 0.21 |
| A371 | none | -0.10 |
| A387 | none | -0.02 |
| G394 | none | 0.04 |
| G395 | none | 0.17 |
| A404 | none | -0.01 |
| A415 | none | -0.09 |
| C426 | none | 0.12 |
| 440 | none | 0.06 |
| 447 | none | 0.11 |
| 466 | none | 0.03 |
| 475 | none | 0.03 |
| 476 | none | -0.01 |
| 478 | none | -0.06 |
| 484 | none | -0.07 |
| 488 | none | -0.02 |
| 489 | none | 0.10 |
| 503 | none | -0.02 |
| 507 | none | -0.05 |

The opening 8 entries, copied out:

position	domain	1G capped high-salt
C28	TAR	-0.06
C29	TAR	-0.04
A47	TAR	-0.05
A66	PolyA	-0.26
G99	PolyA	0.18
U113	none	-0.20
C114	none	0.22
U115	none	0.02

Reference: Ye et al. 2022, doi:10.1038/s41594-022-00746-2.